# Vif LAI: effect of single changes on growth against APOBEC3G

From the data files of Langley et al. 2025, preprint, doi:10.1101/2025.10.20.683452.

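Pooled viruses with one designed change each in Vif went through two 72 h rounds in SupT1 cells expressing APOBEC3G. Frequencies after the second round, in three biological replicates, were compared with the merged pool after the first round.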

Scanned stretch, residues 12 to 115 of Vif from HIV-1 LAI (a laboratory-adapted subtype B strain):
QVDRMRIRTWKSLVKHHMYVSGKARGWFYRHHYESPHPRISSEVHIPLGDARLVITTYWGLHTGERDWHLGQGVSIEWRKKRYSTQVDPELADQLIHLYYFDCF

Scale: log2 enrichment, wild type = 0; negative values mean that the variant was depleted. A change reads original residue, position, new residue. The median of three replicates is given. Input reads are the counts in the merged round-one pool, before selection. Some changes are missing from the data or left out.

{"mutation": "Q105N", "input reads": "1030", "median log2 enrichment": -1.70}
{"mutation": "R90K", "input reads": "1056", "median log2 enrichment": -1.81}
{"mutation": "E76W", "input reads": "518", "median log2 enrichment": -2.93}
{"mutation": "L106N", "input reads": "100", "median log2 enrichment": -1.65}
{"mutation": "H80D", "input reads": "42", "median log2 enrichment": -0.01}
{"mutation": "T20C", "input reads": "190", "median log2 enrichment": 2.02}
{"mutation": "H27Y", "input reads": "910", "median log2 enrichment": -1.15}
{"mutation": "M29A", "input reads": "733", "median log2 enrichment": -1.56}
{"mutation": "V98L", "input reads": "705", "median log2 enrichment": -2.29}
{"mutation": "A103C", "input reads": "30", "median log2 enrichment": -1.16}
{"mutation": "R36L", "input reads": "331", "median log2 enrichment": -2.91}
{"mutation": "T96E", "input reads": "394", "median log2 enrichment": -1.77}
{"mutation": "R36H", "input reads": "992", "median log2 enrichment": -1.21}
{"mutation": "L81V", "input reads": "1464", "median log2 enrichment": -0.08}
{"mutation": "K91N", "input reads": "932", "median log2 enrichment": -0.80}
{"mutation": "R90Y", "input reads": "48", "median log2 enrichment": 0.47}
{"mutation": "A35K", "input reads": "222", "median log2 enrichment": 0.98}
{"mutation": "I107K", "input reads": "183", "median log2 enrichment": -2.53}
{"mutation": "T96Y", "input reads": "646", "median log2 enrichment": -3.51}
{"mutation": "D99Q", "input reads": "114", "median log2 enrichment": -2.34}
{"mutation": "E54Y", "input reads": "337", "median log2 enrichment": -2.77}
{"mutation": "S46T", "input reads": "980", "median log2 enrichment": -2.60}
{"mutation": "A103I", "input reads": "291", "median log2 enrichment": -3.19}
{"mutation": "T67K", "input reads": "411", "median log2 enrichment": -2.87}
{"mutation": "F112Y", "input reads": "148", "median log2 enrichment": -3.78}
{"mutation": "V65P", "input reads": "419", "median log2 enrichment": -2.91}
{"mutation": "I87W", "input reads": "518", "median log2 enrichment": -1.90}
{"mutation": "I107E", "input reads": "132", "median log2 enrichment": -0.92}
{"mutation": "G60N", "input reads": "113", "median log2 enrichment": -4.18}
{"mutation": "H73Q", "input reads": "373", "median log2 enrichment": -1.48}
{"mutation": "S23K", "input reads": "82", "median log2 enrichment": 0.18}
{"mutation": "L102D", "input reads": "46", "median log2 enrichment": -2.91}
{"mutation": "G60L", "input reads": "458", "median log2 enrichment": -3.86}
{"mutation": "S32A", "input reads": "253", "median log2 enrichment": -0.37}
{"mutation": "L59G", "input reads": "497", "median log2 enrichment": -1.29}
{"mutation": "L59K", "input reads": "199", "median log2 enrichment": -1.31}
{"mutation": "S32P", "input reads": "112", "median log2 enrichment": 1.02}
{"mutation": "A62D", "input reads": "182", "median log2 enrichment": -0.50}
{"mutation": "V13Q", "input reads": "668", "median log2 enrichment": -0.84}
{"mutation": "P49A", "input reads": "460", "median log2 enrichment": -2.73}
{"mutation": "Q12H", "input reads": "448", "median log2 enrichment": -1.42}
{"mutation": "W89N", "input reads": "303", "median log2 enrichment": 1.85}

The first 5 entries again:

Q105N (input reads 1030) read -1.70.
R90K (input reads 1056) read -1.81.
E76W (input reads 518) read -2.93.
L106N (input reads 100) read -1.65.
H80D (input reads 42) read -0.01.

Replicates agree only moderately (rank correlation about 0.4-0.65); scores from under about 50 input reads tend to be too high. Positive scores are uncertain; some enriched variants did not exclude APOBEC3G in a separate test.